Binding score data for 1 molecule are collected here from article PMC9876794 (2022).

In the assay the target is SARS-CoV-2 spike RBD (WT) (Severe acute respiratory syndrome …). Put plainly: ELISA. On the set-up: unit not given here. For orientation: ELISA stands for enzyme-linked immunosorbent assay.

B1: D169 (antibody, V domains shown)
VH: QVQLVQSGAEVKKPGASVKVSCKASGYTFTGYYMHWVRQAPGQGLEWMGRINPNSGGTNYAQKFQGRVTMTRDTSISTAYMELSRLRSDDTAVYYCARDLFPHWYFDLWGRGTLVTVSS
VL: [about 100 residues not shown]TFGQGTKVEIK
As for B1, the binding score was greater than 10000.
